PubChem BioAssay AID1259414 | Drosophila RNAi Screening Center, 2018
Aim: 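Host factors increasing or decreasing Wolbachia levels in cultured fly cells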 (primary screen). System: Drosophila JW18 cells infected with Wolbachia. Reagent: long dsRNA against Drosophila genes, 0.25 µg dsRNA per well of a 384-well plate. Timing: 5 days. Conditions: cells persistently infected with Wolbachia before knock-down; no added drug. Measured: 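Automated imaging of bacterial rRNA staining divided by host cell count, reported as plate-normalised robust z-score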. Direction: Wolbachia per cell robust z: higher = more Wolbachia per host cell than the plate typical. Rule for the call: 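Active if absolute robust z reaches 1.5 in two or more of three replicates, leaving out multi- or no-target dsRNAs, genes unexpressed in JW18 and A1 wells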.
The deposit covers about 24,000 reagents; shown is an unselected part of those with a known target gene and a result. Of all reagents, about 1,210 (5%) were called active. 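Inactive calls also include excluded dsRNAs with several or no targets, genes unexpressed in JW18, and well A1, regardless of score.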 The numbers tell different reagents against one gene apart. A plus sign joins genes that one reagent is predicted to hit. No sequences are given here.

predicted target | reagent | Wolbachia per cell robust z, rep 1 | Wolbachia per cell robust z, rep 2 | Wolbachia per cell robust z, rep 3 | activity call
Trf5 (TBP-related factor 5) | 1 | -0.081 | -1.21 | -0.199 | inactive
CG42553 | 1 | -2.33 | -0.8 | -2.37 | active
Eip75B (Ecdysone-induced protein 75B) | 1 | -2.31 | -1.71 | 0.376 | active
Eip75B (Ecdysone-induced protein 75B) | 2 | 0.679 | -1.65 | 0.112 | inactive
GluRIIC (Glutamate receptor IIC) | 1 | -0.843 | 0.0416 | 0.0339 | inactive
COX6AL2 + Ir75d | 1 | -1.41 | -0.704 | 0.427 | inactive
CG33642 | 1 | -3.63 | -0.461 | 0.851 | inactive
TwdlG (TweedleG) | 1 | 0.948 | -0.0236 | -7.07 | inactive
TwdlG (TweedleG) | 2 | 1.01 | 1.01 | 1.3 | inactive
Ogdh (Oxoglutarate dehydrogenase) | 1 | 0.693 | 0.154 | 0.618 | inactive
Ogdh (Oxoglutarate dehydrogenase) | 2 | 0.537 | -0.547 | 0.913 | inactive
CG11159 | 1 | 0.931 | 1.06 | 0.684 | inactive
CG12964 | 1 | 1.14 | 0.821 | -0.315 | inactive
CG12964 | 2 | -0.914 | -0.965 | -5.13 | inactive
CR18275 + CG13373 | 1 | -2.22 | 0.517 | 0.59 | inactive
ND-15 (NADH dehydrogenase (ubiquinone) 15 kDa subunit) | 1 | 1.47 | 0.731 | -0.268 | inactive
CG2712 | 1 | -0.1 | 0.203 | -0.424 | inactive
Psf1 (Partner of Sld Five 1) | 1 | 0.77 | 0.416 | 0.805 | inactive
Psf1 (Partner of Sld Five 1) | 2 | 0.239 | -0.191 | -0.424 | inactive
CG15005 | 1 | -0.0313 | -1.25 | 0.405 | inactive
CG15005 | 2 | -1.38 | -0.151 | -0.719 | inactive
mthl11 (methuselah-like 11) | 1 | 0.861 | 0.522 | 1.19 | inactive
mthl11 (methuselah-like 11) | 2 | 0.938 | 1.24 | -0.0938 | inactive
lz (lozenge) | 1 | -1.07 | -6.06 | 0.532 | inactive
lz (lozenge) | 2 | 0.0231 | 0.318 | -1.14 | inactive
lz (lozenge) | 3 | -0.168 | 0.053 | 0.0872 | inactive
Gdh (Glutamate dehydrogenase) | 1 | -1.89 | -0.724 | -6.77 | active
Gdh (Glutamate dehydrogenase) | 2 | 0.38 | 0.723 | 0.822 | inactive
CG14778 | 1 | 0.587 | 0.349 | 0.132 | inactive
Or65b (Odorant receptor 65b) | 1 | 1.07 | 1.48 | 0.146 | inactive
CG1416 | 1 | -1.19 | 1.32 | -3.67 | inactive
vg (vestigial) | 1 | -3.22 | -1.91 | -1.38 | active
vg (vestigial) | 2 | 0.344 | -0.00837 | 0.348 | inactive
vg (vestigial) | 3 | 0.107 | -1.07 | 0.494 | inactive
Ank2 (Ankyrin 2) | 1 | 0.861 | -3.54 | 0.645 | inactive
Ank2 (Ankyrin 2) | 2 | 0.0927 | 0.759 | -4.82 | inactive
Ank2 (Ankyrin 2) | 3 | -0.18 | -0.0264 | 0.935 | inactive
Ank2 (Ankyrin 2) | 4 | 0.0221 | 0.106 | -1.9 | inactive
Ank2 (Ankyrin 2) | 5 | -2.08 | -1.18 | -0.955 | inactive
Ank2 (Ankyrin 2) | 6 | -0.0216 | -0.928 | -0.351 | inactive
Reepl1 (Receptor accessory protein like 1) | 1 | -2.65 | 0.25 | 0.125 | inactive
Reepl1 (Receptor accessory protein like 1) | 2 | 0.589 | 0.686 | 0.619 | inactive
Anp (Andropin) | 1 | 0.255 | -3.54 | -0.341 | inactive
CG31805 | 1 | 1.31 | -0.497 | 0.607 | inactive
CG14142 | 1 | 0.398 | 0.0924 | -3.91 | inactive
CG14142 | 2 | 1.02 | -0.408 | 0.0463 | inactive
CG42300 + CG42299 | 1 | 0.894 | 0.217 | -0.135 | inactive
CG5697 | 1 | 0.729 | 0.25 | -0.589 | inactive
CG14043 | 1 | -0.524 | -0.683 | -2.96 | inactive
CG14043 | 2 | 1.28 | 0.416 | 1.03 | inactive
Myo31DF (Myosin 31DF) | 1 | -8.6 | -4.09 | 0.221 | active
Myo31DF (Myosin 31DF) | 2 | -3.4 | -1.51 | -0.762 | active
Myo31DF (Myosin 31DF) | 3 | -0.706 | 1.42 | 0.352 | inactive
ATPsynO (ATP synthase, oligomycin sensitivity conferring protein) | 1 | -0.188 | 0.14 | 0.116 | inactive
ATPsynO (ATP synthase, oligomycin sensitivity conferring protein) | 2 | 0.148 | -0.386 | 1.23 | inactive
CG14073 | 1 | -0.318 | -0.155 | -0.125 | inactive
CG14073 | 2 | 0.81 | 0.83 | -0.622 | inactive
SWIP (Strumpellin and WASH-interacting protein) | 1 | 0.798 | -2.26 | 1.14 | inactive
aux (auxilin) | 1 | -2.55 | -2.04 | -0.809 | active
aux (auxilin) | 2 | -0.789 | -0.967 | -1.51 | inactive
Pp2C1 (Protein phosphatase 2C) | 1 | -0.17 | 0.412 | -0.168 | inactive
Pp2C1 (Protein phosphatase 2C) | 2 | 1.14 | -0.0659 | 0.345 | inactive
DNAlig3 (DNA ligase 3) | 1 | 1.03 | -3.17 | -0.24 | inactive
DNAlig3 (DNA ligase 3) | 2 | 1.08 | -0.142 | -5.36 | inactive
CG8543 | 1 | 0.726 | 0.459 | 0.304 | inactive
CG8543 | 2 | -1.52 | -1.67 | -0.997 | inactive
CG8543 | 3 | 0.365 | 0.519 | -0.825 | inactive
dah (discontinuous actin hexagon) | 1 | 1.28 | 1.44 | 0.301 | inactive

Not a retest: 4 of the entries above.
predicted target | reagent | Wolbachia per cell robust z, rep 1 | Wolbachia per cell robust z, rep 2 | Wolbachia per cell robust z, rep 3 | activity call
aux (auxilin) | 2 | -0.789 | -0.967 | -1.51 | inactive
Pp2C1 (Protein phosphatase 2C) | 1 | -0.17 | 0.412 | -0.168 | inactive
Pp2C1 (Protein phosphatase 2C) | 2 | 1.14 | -0.0659 | 0.345 | inactive
DNAlig3 (DNA ligase 3) | 1 | 1.03 | -3.17 | -0.24 | inactive
